Laboratory results from patent publication US20240398816A1, “Gel Treatment for Loss of Taste and Smell” (Cyrano Therapeutics, Inc., priority 2021, published 2024).

System: patient who had loss of taste and smell from COVID-19
Conditions: 80 μg theophylline nasal spray once per day, 3 months

Cn1c(=O)c2[nH]cnc2n(C)c1=O [Theophylline]
Side effects: No side effects were reported
